Pooled drug test results. Numbers come from NIAID ChemDB, via PubChem.

All rows: growth or infection tests; species: Aspergillus niger; read-out: MIC100

An empty or dashed field is not shown.

compound,strain,read by,result
Nc1[nH]c(=O)nc2oc3ccccc3c(=O)c12,MTCC 282,broth dilution,500 µg/mL
Cc1ccc(-c2nc3ccccc3c(=O)n2-c2ccc(C(=O)NN3C(=O)/C(=C/c4ccccc4Br)SC3c3ccc(F)cc3)cc2)cc1,MTCC 282,-,1000 µg/mL
COc1ccc(-c2n[nH]c(COc3nc(C)nc4ccccc34)n2)cc1,MTCC 282,-,12.5 µg/mL
O=c1ccc2c(ccc3nc(N4CCN(c5cccc(C(F)(F)F)c5)CC4)sc32)o1,MTCC 282,-,100 µg/mL
Cc1nc(OCc2nc(-c3ccc(Br)cc3)n[nH]2)c2ccccc2n1,MTCC 282,-,12.5 µg/mL
COc1cc(/C=C2\SC(c3ccc(F)cc3)N(NC(=O)c3ccc(-n4c(-c5ccc(C)cc5)nc5ccccc5c4=O)cc3)C2=O)cc(OC)c1OC,MTCC 282,-,500 µg/mL
Cn1c(=O)ccc2c3sc(N4CCN(c5cccc(Cl)c5Cl)CC4)nc3ccc21,MTCC 282,-,62.5 µg/mL
Cc1ccc(-c2nc3ccccc3c(=O)n2-c2ccc(C(=O)NN3C(=O)/C(=C/c4ccc(O)cc4)SC3c3ccc(F)cc3)cc2)cc1,MTCC 282,-,250 µg/mL
COc1ccc(CN2CCN(c3nc4ccc5oc(=O)ccc5c4s3)CC2)c(OC)c1OC,MTCC 282,-,62.5 µg/mL
COc1ccccc1/C=C1\SC(c2ccc(F)cc2)N(NC(=O)c2ccc(-n3c(-c4ccc(C)cc4)nc4ccccc4c3=O)cc2)C1=O,MTCC 282,-,1000 µg/mL
Nc1nc(N)c2c(=O)c3cc(Br)cc(Br)c3oc2n1,MTCC 282,broth dilution,>1000 µg/mL
Cc1ccc(-c2nc3ccccc3c(=O)n2-c2ccc(C(=O)NN3C(=O)/C(=C/c4c(Cl)cccc4Cl)SC3c3ccc(F)cc3)cc2)cc1,MTCC 282,-,500 µg/mL
Nc1[nH]c(=S)nc2oc3ccccc3c(=O)c12,MTCC 282,broth dilution,500 µg/mL
Cn1c(=O)ccc2c3sc(N4CCN(C(c5ccccc5)c5ccc(Cl)cc5)CC4)nc3ccc21,MTCC 282,-,62.5 µg/mL
Cc1nc(OCc2nc(-c3ccccc3)n[nH]2)c2ccccc2n1,MTCC 282,-,12.5 µg/mL
Cc1ccc(-c2nc3ccccc3c(=O)n2-c2ccc(C(=O)NN3C(=O)CSC3c3ccc(F)cc3)cc2)cc1,MTCC 282,-,500 µg/mL
Brc1ccc(-c2n[nH]c(COc3ncnc4ccccc34)n2)cc1,MTCC 282,-,25 µg/mL
CC1/C=C/C=C/C=C/C=C/C(O[C@@H]2O[C@H](C)[C@@H](O)[C@H](N)[C@@H]2O)CC2OC(O)(CC(O)CC(O)C(O)/C=C/C(=O)OC1C)CC(O)C2C(=O)O,CGMCC 3.6478,broth dilution,22.5 µg/mL

A second listing of 2 rows from above:

{"compound": "Cc1ccc(-c2nc3ccccc3c(=O)n2-c2ccc(C(=O)NN3C(=O)/C(=C/c4ccccc4Br)SC3c3ccc(F)cc3)cc2)cc1", "strain": "MTCC 282", "result": "1000 µg/mL"}
{"compound": "COc1ccccc1/C=C1\\SC(c2ccc(F)cc2)N(NC(=O)c2ccc(-n3c(-c4ccc(C)cc4)nc4ccccc4c3=O)cc2)C1=O", "strain": "MTCC 282", "result": "1000 µg/mL"}

Neighbouring rows are from separate reports. MIC50, MIC90 and the like: level of inhibition, or share of isolates inhibited.